Patent publication US6866854 (TRUSTEES OF COLUMBIA UNIVERSITY IN THE CITY OF NEW YORK, dated 2005)

Target: T1, Kaposi's sarcoma-associated herpesvirus latency-associated nuclear antigen 2 (LANA2) (Kaposi's sarcoma-associated herpesvirus …)
T1 construct: also called protein encoded by ORFK10.5; K10.5
Test: GST pull-down with in vitro translated 35S-methionine-labeled LANA2

B1: GST protein alone (other, UniProt P08515 1-218, looked up)
chain: MSPILGYWKIKGLVQPTRLLLEYLEEKYEEHLYERDEGDKWRNKKFELGLEFPNLPYYIDGDVKLTQSMAIIRYIADKHNMLGGCPKERAEISMLEGAVLDIRYGVSRIAYSKDFETLKVDFLSKLPEMLKMFEDRLCHKTYLNGDHVTHPDFMLYDALDVVLYMDPMCLDAFPKLVCFKKRIEAIPQIDKYLKSSKYIAWPLQGWQATFGGGDHPPK
notes: also called GST alone; glutathione-S-transferase
binding result: no binding
